Results: ChEMBL document CHEMBL4354878, “Structure-Based Bioisosterism Yields HIV-1 NNRTIs with Improved Drug-Resistance Profiles and Favorable Pharmacokinetic Properties” (J Med Chem, 2020)

Tests used:
[1] = target: Human immunodeficiency virus type 1 reverse transcriptase (Human immunodeficiency virus 1, UniProt Q72547, Y181C); assay: Inhibition of HIV1 RT Y181C mutant in presence of reconstituted template and viral nucleotides [digoxigenin (DIG)-dUTP, biotin-dUTP and dTTP] incubated for 1 hr by ELISA method
[2] = target: Human immunodeficiency virus type 1 reverse transcriptase (Human immunodeficiency virus 1, UniProt Q72547, L100I); assay: Inhibition of HIV1 RT L100I mutant in presence of reconstituted template and viral nucleotides [digoxigenin (DIG)-dUTP, biotin-dUTP and dTTP] incubated for 1 hr by ELISA method
[3] = target: Human immunodeficiency virus type 1 reverse transcriptase (Human immunodeficiency virus 1, UniProt Q72547); assay: Inhibition of HIV1 RT in presence of reconstituted template and viral nucleotides [digoxigenin (DIG)-dUTP, biotin-dUTP and dTTP] incubated for 1 hr by ELISA method
[4] = target: Human immunodeficiency virus type 1 reverse transcriptase (Human immunodeficiency virus 1, UniProt Q72547, E138K); assay: Inhibition of HIV1 RT E138K mutant in presence of reconstituted template and viral nucleotides [digoxigenin (DIG)-dUTP, biotin-dUTP and dTTP] incubated for 1 hr by ELISA method
[5] = target: Human immunodeficiency virus type 1 reverse transcriptase (Human immunodeficiency virus 1, UniProt Q72547, Y188L); assay: Inhibition of HIV1 RT Y188L mutant in presence of reconstituted template and viral nucleotides [digoxigenin (DIG)-dUTP, biotin-dUTP and dTTP] incubated for 1 hr by ELISA method
[6] = target: Human immunodeficiency virus type 1 reverse transcriptase (Human immunodeficiency virus 1, UniProt Q72547, K103N); assay: Inhibition of HIV1 RT K103N mutant in presence of reconstituted template and viral nucleotides [digoxigenin (DIG)-dUTP, biotin-dUTP and dTTP] incubated for 1 hr by ELISA method

## Cc1cc(C#N)cc(C)c1Oc1nc(Nc2ccc(C#N)cc2)nc(N)c1Br [ETRAVIRINE]
[1]
  pIC50: 7.77
[2]
  pIC50: 7.89
[3]
  pIC50: 7.92
[4]
  pIC50: 7.49
[5]
  pIC50: 7.34
[6]
  pIC50: 7.60

pIC50: −log10 of the molar value.
